A mixed list of measured activities; the numbers were collected in NIAID ChemDB.

Common to all: tests on isolated targets; organism: HIV-1; protein: Integrase; endpoint: IC50

a–b is a range or a potency band.

| compound | read by | result |
|---|---|---|
| COc1cccc(CNC(=O)/C=C(\O)C(=O)O)c1 | strand transfer | <70 µM |
| CN(CC1c2nc(C(=O)NCc3ccc(F)cc3)c(O)c(=O)n2CCN1C)C(=O)CS(C)(=O)=O | ELISA | <10 µM |
| O=C1c2c(O)c(=O)c(Br)cn2CC(O)N1Cc1cccc(Cl)c1 | ELISA | 0.1–1 µM |
| O=C(O)/C(O)=C/C(=O)N(Cc1ccccc1)Cc1ccccc1 | strand transfer | <70 µM |
| CN(C)C(=O)CC1Cn2c(c(O)c(=O)n(C3CCCC3)c2=O)C(=O)N1Cc1ccc(F)cc1 | strand transfer | <10 µM |
| O=C(/C=C(\O)C(=O)O)NCc1cccc(Cl)c1Cl | strand transfer | <70 µM |
| CC(C)n1c(=O)c(O)c2n(c1=O)C(CCOCc1ccccc1)CN(Cc1ccc(F)cc1)C2=O | strand transfer | <10 µM |
| O=c1ccn2ncn(Cc3cccc(Cl)c3)c(=O)c2c1O | ELISA | 0.1–1 µM |
| CC1(C)CC(n2c(=O)c(O)c3n(c2=O)CCN(Cc2ccc(F)cc2)C3=O)CCO1 | strand transfer | <10 µM |
| CN1CCn2c(nc(C(=O)NCc3ccc(F)cc3)c(O)c2=O)C(NS(C)(=O)=O)C1 | ELISA | <10 µM |
| N#C/C(=C\c1ccc(O)c(O)c1)C(=O)NCCCCCCCCCCNC(=O)/C(C#N)=C/c1ccc(O)c(O)c1 | strand transfer | 5–10 µM |
| CN(C)C(=O)c1cn2ccn(Cc3ccc(F)c(Cl)c3)c(=O)c2c(O)c1=O | ELISA | <0.01 µM |
| CN(C)C(=O)C(=O)N(C)C1CN(C2CCCC2)CCn2c1nc(C(=O)NCc1ccc(F)cc1)c(O)c2=O | ELISA | <10 µM |
| Cc1ccc(CNC(=O)/C=C(\O)C(=O)O)cc1 | strand transfer | <70 µM |
| CC(C)C(O)c1cn(Cc2ccc(Cl)c(Cl)c2)c(=O)c2c(O)c(=O)ccn12 | ELISA | <0.01 µM |
| Cc1cc(CNC(=O)c2nc3n(c(=O)c2O)CCN(C(C)C)CC3N(C)C(=O)C(=O)N(C)C)ccc1F | ELISA | <10 µM |
| O=C1c2c(O)c(=O)n([C@@H]3C[C@H]3c3ccccc3)c(=O)n2CCN1Cc1ccc(F)cc1 | strand transfer | <10 µM |
| N#C/C(=C\c1ccc(O)c(O)c1)C(=O)NCCCCCNC(=O)/C(C#N)=C/c1ccc(O)c(O)c1 | 3′ processing / substrate cleavage | 5–10 µM |
| O=C1c2c(O)c(=O)ncn2CCN1Cc1cccc(Cl)c1 | ELISA | 0.01–0.1 µM |
| O=C(O)c1ccccc1SCc1cc(O)ccc1O | 3′ processing / substrate cleavage | 10–100 µM |
| O=c1c(-c2ncco2)cn2ccn(Cc3cccc(Cl)c3)c(=O)c2c1O | ELISA | 0.01–0.1 µM |
| COc1ccc(NC(=O)/C(C#N)=C/c2ccc(O)c(O)c2)cc1O | strand transfer | 10–100 µM |
| CC(=O)Nc1ccc(CNC(=O)c2cn3c(c(O)c2=O)C(=O)N(Cc2ccc(F)cc2)CC3)cc1 | ELISA | 0.01–0.1 µM |
| CC(=O)N1CCn2c(nc(C(=O)NCc3ccc(F)cc3)c(O)c2=O)C1COCc1ccccc1 | ELISA | <10 µM |
| O=C1c2c(O)c(=O)c(-c3cnccn3)cn2CCN1Cc1ccc(F)cc1 | ELISA | 0.01–0.1 µM |
| Cc1cccc(CNC(=O)/C=C(\O)C(=O)O)c1 | strand transfer | <70 µM |

Repeating the final 3 entries:

compound,read by,result
CC(=O)N1CCn2c(nc(C(=O)NCc3ccc(F)cc3)c(O)c2=O)C1COCc1ccccc1,ELISA,<10 µM
O=C1c2c(O)c(=O)c(-c3cnccn3)cn2CCN1Cc1ccc(F)cc1,ELISA,0.01–0.1 µM
Cc1cccc(CNC(=O)/C=C(\O)C(=O)O)c1,strand transfer,<70 µM

Neighbouring rows are from separate reports. ICn is the concentration giving n% inhibition.